{"source": "PubChem BioAssay AID1224833 (University of Georgia, 2016)", "purpose": "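Human genes whose knock-down alters rotavirus replication in monkey cells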 (primary screen)", "system": "monkey MA104 kidney cells", "reagent": "siRNA pool against human genes, 50 nM", "timing": "48 h knock-down before infection; read 24 h after infection", "conditions": "infection with rotavirus strain RV3 two days after transfection; infectious dose for this stage not given", "measurement": "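Rotavirus antigen per well by fluorescent immunoassay, normalised to non-targeting control wells on each plate and given as a standard z-score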", "reading the numbers": "z-score vs non-targeting control: higher = more rotavirus replication than with non-targeting control", "call rule": "In these data the active calls have z-score vs non-targeting control at about -1 or lower, or at about 1 or higher", "meaning of the calls": "active = z-score beyond 1 either way; inactive = z-score within 1 of zero", "note": "The whole screen tested about 12,000 reagents; shown is an unselected part. In the full data, about 5,600 (46%) are marked active. 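Active calls cover z-scores past 1 in both directions, so they include lowered as well as raised rotavirus replication.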 Unmarked entries are inactive. Reagent sequences are not shown."}
{"gene symbol": "CDHR5", "z-score vs non-targeting control": -0.859}
{"gene symbol": "IPO7", "z-score vs non-targeting control": "-2.03 (active)"}
{"gene symbol": "JUN", "z-score vs non-targeting control": "1.17 (active)"}
{"gene symbol": "OR8J1", "z-score vs non-targeting control": -0.914}
{"gene symbol": "PAPLN", "z-score vs non-targeting control": -0.981}
{"gene symbol": "LCE2C", "z-score vs non-targeting control": 0.193}
{"gene symbol": "RASGEF1C", "z-score vs non-targeting control": 0.178}
{"gene symbol": "OTOP1", "z-score vs non-targeting control": 0.725}
{"gene symbol": "JPH4", "z-score vs non-targeting control": 0.982}
{"gene symbol": "RWDD2A", "z-score vs non-targeting control": 0.634}
{"gene symbol": "SERPINI2", "z-score vs non-targeting control": "-1.24 (active)"}
{"gene symbol": "USH1C", "z-score vs non-targeting control": "2.03 (active)"}
{"gene symbol": "CHN1", "z-score vs non-targeting control": "1.42 (active)"}
{"gene symbol": "C4BPB", "z-score vs non-targeting control": 0.814}
{"gene symbol": "OGN", "z-score vs non-targeting control": "1.13 (active)"}
{"gene symbol": "ATP8B3", "z-score vs non-targeting control": "-2.24 (active)"}
{"gene symbol": "FRMD3", "z-score vs non-targeting control": 0.437}
{"gene symbol": "SULT4A1", "z-score vs non-targeting control": -0.504}
{"gene symbol": "ZSCAN4", "z-score vs non-targeting control": -0.353}
{"gene symbol": "KASH5", "z-score vs non-targeting control": "-1.05 (active)"}
{"gene symbol": "ITGB8", "z-score vs non-targeting control": -0.669}
{"gene symbol": "IDO1", "z-score vs non-targeting control": "-2.23 (active)"}
{"gene symbol": "SPAG4", "z-score vs non-targeting control": -0.302}
{"gene symbol": "RCSD1", "z-score vs non-targeting control": -0.13}
{"gene symbol": "SSPOP", "z-score vs non-targeting control": -0.582}
{"gene symbol": "SEMG2", "z-score vs non-targeting control": -0.177}
{"gene symbol": "KRTCAP2", "z-score vs non-targeting control": 0.867}

Next part, starting with the last 5 of the part before.
{"gene symbol": "SPAG4", "z-score vs non-targeting control": -0.302}
{"gene symbol": "RCSD1", "z-score vs non-targeting control": -0.13}
{"gene symbol": "SSPOP", "z-score vs non-targeting control": -0.582}
{"gene symbol": "SEMG2", "z-score vs non-targeting control": -0.177}
{"gene symbol": "KRTCAP2", "z-score vs non-targeting control": 0.867}
{"gene symbol": "GLRX5", "z-score vs non-targeting control": "-2.18 (active)"}
{"gene symbol": "CCDC14", "z-score vs non-targeting control": "-1.5 (active)"}
{"gene symbol": "FAM24A", "z-score vs non-targeting control": -0.552}
{"gene symbol": "HS3ST3B1", "z-score vs non-targeting control": "-2.83 (active)"}
{"gene symbol": "FAAP100", "z-score vs non-targeting control": -0.643}
{"gene symbol": "HSF1", "z-score vs non-targeting control": "-2.03 (active)"}
{"gene symbol": "MMP26", "z-score vs non-targeting control": "2.1 (active)"}
{"gene symbol": "DUX1", "z-score vs non-targeting control": -0.734}
{"gene symbol": "DENND2A", "z-score vs non-targeting control": 0.775}
{"gene symbol": "SGTA", "z-score vs non-targeting control": "-1.04 (active)"}
{"gene symbol": "LCAT", "z-score vs non-targeting control": -0.747}
{"gene symbol": "MESP2", "z-score vs non-targeting control": -0.467}
{"gene symbol": "ZNF567", "z-score vs non-targeting control": 0.657}
{"gene symbol": "HBZ", "z-score vs non-targeting control": "1.88 (active)"}
{"gene symbol": "MMRN2", "z-score vs non-targeting control": -0.728}
{"gene symbol": "OLFML3", "z-score vs non-targeting control": "1.32 (active)"}
{"gene symbol": "ABI1", "z-score vs non-targeting control": "-1.55 (active)"}
{"gene symbol": "IL26", "z-score vs non-targeting control": "-2.89 (active)"}
{"gene symbol": "SIX1", "z-score vs non-targeting control": "1.86 (active)"}
{"gene symbol": "S100A4", "z-score vs non-targeting control": "-2.6 (active)"}
